Library screen at single concentrations

The values are deposited in ChEMBL (CHEMBL3988442, “University of Dundee, Small-Polar-MMV Screening Library” (2021)).

Results are given as percent effect.
The controls that fix the scale are not given in the record; negative values are as filed.
This is part of a subset picked to be rich in strong results.
A dash means the value is not listed here; it may have been measured.

A: 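Growth of Mycobacterium tuberculosis over 4 days (cholesterol / DPPC medium with tyloxapol); the read-out is not stated. Tested at 500 µM. Higher reads as more growth inhibition (inferred: compounds with an IC50 in retests scored well above the rest). About 18,000 compounds were tested under these conditions; 5% (about 900) showed 50% or more at least once.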
B: 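Phenotypic screen: M. tuberculosis growth, glucose 7H9 medium, 3 days; the read-out is not stated. Tested at 500 µM. Direction is inferred from retests: higher values go with more growth inhibition. Of about 18,000 compounds tested this way, about 1,400 (7.9%) reached 50% or more in at least one test.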

Compound	A	B
CC(C)Cn1nnnc1SC(C)C#N (stereo not drawn)	-	5.388
CN(C)S(=O)(=O)c1csc(C(=O)N2CCOCC2)c1	-	9.045
OCC1CCN(Cc2cc(Cl)c3c(c2)OCCO3)CC1	-	32.16
CCN(CCS(C)(=O)=O)CC(O)c1ccc(C)cc1 (stereo not drawn)	23.74	23.94
CC(N)CCS(C)(=O)=O (stereo not drawn)	-	6.547
COc1ccc(OC)c(NC(=O)CCN2CCCC2)c1	-	23.54
CC(C)C(=O)NC(C)c1ccc2c(c1)OCCO2 (stereo not drawn)	-	19.89
NC(=O)NCC(=O)Nc1cccc(C2SCCS2)c1	-	7.311
OCCOC1CCCN(c2nc3ccccc3[nH]2)C1 (stereo not drawn)	-	24.56
CC(CN)CNC(=O)OC(C)(C)C (stereo not drawn)	-0.6249	-
CN(CCCc1ccccc1)CC(=O)NCCC#N	12.82	-
COc1ccc(CNS(=O)(=O)c2c(N)noc2C)cc1	-	21.9
COc1ccc(NC(=O)N2CCOCC2)cc1F	-	-1.647
CCNc1ccnc(C(=O)NCc2ccccc2)c1	-	59.08
CC(O)CNCCNCc1ccc(-c2ccccc2)o1 (stereo not drawn)	48.27	60.04
Cc1ccc(C(=O)C2CCN(S(C)(=O)=O)CC2)cc1	-23.61	-2.88
CC(NC(=O)c1ccc(Br)s1)C(=O)N(CCO)C1CC1 (stereo not drawn)	-	24.7
CCC(NC(=O)c1ccc(C)c(O)c1)[C@H]1C[C@H](O)C1 (stereo partly drawn)	-	7.626
CCNC(=O)c1ccc2n1CCNC2C (stereo not drawn)	-	6.566
CC(CNC(=O)c1nccnc1N)Cn1ccnc1 (stereo not drawn)	-	24.17
O=C(NCCc1cccnc1)c1cc(C2CC2)on1	-5.424	53.62
CNCc1ccc(C(=O)NC)o1	-	5.346
CNS(=O)(=O)CCCNC(C)(C)c1nccs1	9.661	-
CCOC1CC(CN)(N2CCOCC2)C1 (stereo not drawn)	-	-1.448
Cc1cc(C(=O)Nc2ccc3c(c2)CCCN3)on1	62.15	57.29
CN1N=C(c2ccc3c(c2)OCCO3)CCC1=O	5.249	12.95
Cc1ccccc1C1(O)CCNCC1	-	-5.376
O=C(Cn1nc2ccccn2c1=O)N1CCCCCC1	0.3997	-
O=C(c1ccc(Cl)o1)N1CCN(Cc2ccco2)CC1	90.44	89.61
CC(=O)N[C@@H]1CN(Cc2cccc(Br)c2)C[C@H]1CO	2.664	-
Cc1cc(Br)cc(C(=O)NCc2nccc(N)n2)c1	80.48	-
O=C(C1CCCN(c2ccncc2Cl)C1)N1CCCC1 (stereo not drawn)	-1.641	-9.149
OC(c1cc2n(n1)CCN(Cc1ccoc1)C2)C1CC1 (stereo not drawn)	-	4.969
O=C(NCC(=O)N1CCCC1)c1csc2ccccc12	-	97.52
NC(=O)CCC(F)(F)F	-	0.9226
Cc1noc(C(C)Nc2ccc3c(c2)CCC(=O)N3)n1 (stereo not drawn)	-13.52	-
CCCN1CCC(NCC(O)c2ccco2)CC1 (stereo not drawn)	-	-7.058
c1ccc2c(c1)COC21CCNC1 (stereo not drawn)	-	-5.368
NCc1nc(C(F)F)no1	-	53.16
CC(C)(CO)NC(=O)c1cccc(OCC(F)F)n1	-9.038	-
CC(=O)N1CCC(CSc2n[nH]c(=O)n2C)CC1	-	7.008
CCSc1nc2ccccc2c(=O)n1CCCO	88.4	86.37
Cc1nn(C)c(Cl)c1C(=O)N1CCN(C2CC2)CC1	-	-2.13
CNC1(CO)Cc2ccccc2C1	-	18.07
CC1(C)NC(=O)CC1c1ccccc1 (stereo not drawn)	-	15.47
COc1ccc(CCN2CCNCC2)cc1	8.484	25.86
Cc1cccc(S(=O)(=O)N2CC[C@H](N)C2)c1C#N	-	-3.853
COC(C(=O)NCc1nc(C)c[nH]1)c1ccccc1 (stereo not drawn)	-	22.5
Cc1cnc(C(=O)NCc2ccc(C)n2C)cn1	-	44.34
CCCc1nnc(NCc2cccnc2)o1	-	6.196
CO[C@H]1CN(C(=O)c2csc(CN(C)C)n2)CC[C@H]1N	-	-2.562
CCc1cc(C(=O)NCC(=O)N2CCCCC2)[nH]n1	-	21.12
CS(=O)(=O)Nc1ccc(OCCN)cc1	-	0.8351
NC(CCO)c1ccccc1Br (stereo not drawn)	-	6.628
O=C(Nc1cccc(-n2cnnn2)c1)C1CCCO1 (stereo not drawn)	4.515	-
CCC(O)CN1CCN(c2ccccc2C#N)C(=O)C1 (stereo not drawn)	-	5.122
Cc1cc(N2CCS(=O)(=O)CC2)nc2ccccc12	-1.277	-2.51
Cn1cc(NC(=O)NC2CCCCC2)c(C(N)=O)n1	10.29	-
NC1CCS(=O)(=O)c2ccc(Br)cc21 (stereo not drawn)	66.94	58.98
NCC(CO)Cc1ccc(F)c(F)c1 (stereo not drawn)	-	26.42
O=C(NCc1nc(C2CC2)no1)Nc1nncs1	-6.759	-
CCC(CO)Nc1ncc(C(F)(F)F)cc1Cl (stereo not drawn)	63.31	49.42
Cc1cc(CSCC(=O)NCc2cccs2)on1	11.33	-
N[C@H]1CN(S(=O)(=O)N2CCOCC2)C[C@@H]1C1CC1	-	11.25
COc1cccc(CNC(=O)N2CCSCC2)c1OC	-	14.32